Reference: US20240109955A1 (published 2024)
Residue numbers refer to the chain shown, from its start. Read-outs that look alike come from different tables or passages of the source.

B1: MX829 (bispecific antibody)
chain: DIQMTQSPSSVSASVGDRVIITCRASQGISSWLAWYQQKPGKAPKVLIYDASSLQSGVPSRFSGSGYGTDFTLTISSLQPEDSATYYCQQAKSFPITFGQGTRLEIKGGSSGEIVLTQSPGTLSLSPGERATLSCRASQSVSSSYLAWYQQKPGQAPRLLIYSASSRATGIPDRFSGSGSGTDFTLTISRLEPEDFAVYFCQQYVGLTGWTFGQGTKVEIKGGGGSGGSGSGGGGSASGSGQMQLVQSGPEVKKPGTSVKVSCKASGFTFTSSAVQWVRQRQRLEWIGWIVVGSGNTNYAQKFQERVTITRDMSTSTAYMELSSLRSEDTAVYYCAAPNCSNVVCYDGFDIWGQGTMVTVSSGGSSGQVQLVESGGGVVQPGRSLRLSCAASGFTFSSYAFHWVRQAPGKGLEWVAVISYDGSNQYYADSVKGRFTISRDNSKNTLYLQMNSLRADDTAVYYCARDLAIAVAGTWHYYNGMDVWGQGTTVTVSSASGGSGDKTHTCPPCPAPELLGGPSVFLFPPKPKDTLMISRTPEVTCVVVDVSHEDPEVKFNWYVDGVEVHNAKTKPREEQYNSYVVSVLTVLHQDWLNGKEYKCKVSNKALPAPIEKTISKAKGQPREPQVYTLPPSRDELTKNQVSLTCLVKGFYPSDIAVEWESNGQPENNYKTTPPVLDSDGSFFKKLTVDKSRWQQGNVFSCSVLHEALHSHYTQKSLSLSPG
B2: MX828 (bispecific antibody)
chain: QTVVTQEPSFSVSPGGTVTLTCGLSSGSVSTAYFPSWYQQTPGQAPRTLIYGTNTRSSGVPDRFSGSILGNKAALTITGAQADDESDYYCVLYMGRGIVVFGGGTKLTVLGGSSGEIVLTQSPGTLSLSPGERATLSCRASQSVSSSYLAWYQQKPGQAPRLLIYSASSRATGIPDRFSGSGSGTDFTLTISRLEPEDFAVYFCQQYVGLTGWTFGQGTKVEIKGGGGSGGSGSGGGGSASGSGQMQLVQSGPEVKKPGTSVKVSCKASGFTFTSSAVQWVRQRQRLEWIGWIVVGSGNTNYAQKFQERVTITRDMSTSTAYMELSSLRSEDTAVYYCAAPNCSNVVCYDGFDIWGQGTMVTVSSGGSSGQVQLVESGGGVVQPGRSLRLSCAASGFTLSSYGMHWVRQAPGKGLEWVAVISYDGSNKYYVDSVKGRFTISRDNSKNTLYLQMNSLRAEDTAVYYCRWAYWELLPDYYYGMDVWGQGTTVTVSSASGGSGDKTHTCPPCPAPELLGGPSVFLFPPKPKDTLMISRTPEVTCVVVDVSHEDPEVKFNWYVDGVEVHNAKTKPREEQYNSYVVSVLTVLHQDWLNGKEYKCKVSNKALPAPIEKTISKAKGQPREPQVYTLPPSRDELTKNQVSLTCLVKGFYPSDIAVEWESNGQPENNYKTTPPVLDSDGSFFKKLTVDKSRWQQGNVFSCSVLHEALHSHYTQKSLSLSPG
B3: MX830 (bispecific antibody)
chain: B2 chain with V208G
B4: MX837 (other)
chain 1: B2 chain with S632C, T644W
chain 2: DIQMTQSPSSVSASVGDRVIITCRASQGISSWLAWYQQKPGKAPKVLIYDASSLQSGVPSRFSGSGYGTDFTLTISSLQPEDSATYYCQQAKSFPITFGQGTRLEIKGGSSGEIVLTQSPGTLSLSPGERATLSCRASQSVSSSYLAWYQQKPGQAPRLLIYSASSRATGIPDRFSGSGSGTDFTLTISRLEPEDFAVYFCQQYVGLTGWTFGQGTKVEIKGGGGSGGSGSGGGGSASGSGQMQLVQSGPEVKKPGTSVKVSCKASGFTFTSSAVQWVRQRQRLEWIGWIVVGSGNTNYAQKFQERVTITRDMSTSTAYMELSSLRSEDTAVYYCAAPNCSNVVCYDGFDIWGQGTMVTVSSGGSSGQVQLVESGGGVVQPGRSLRLSCAASGFTFSSYAFHWVRQAPGKGLEWVAVISYDGSNQYYADSVKGRFTISRDNSKNTLYLQMNSLRADDTAVYYCARDLAIAVAGTWHYYNGMDVWGQGTTVTVSSASGGSGDKTHTCPPCPAPELLGGPSVFLFPPKPKDTLMISRTPEVTCVVVDVSHEDPEVKFNWYVDGVEVHNAKTKPREEQYNSYVVSVLTVLHQDWLNGKEYKCKVSNKALPAPIEKTISKAKGQPREPQVCTLPPSRDELTKNQVSLSCAVKGFYPSDIAVEWESNGQPENNYKTTPPVLDSDGSFFLVSKLTVDKSRWQQGNVFSCSVLHEALHSHYTQKSLSLSPG
B5: MX835 (other)
chain 1: B2 chain with V208G, S632C, T644W
chain 2: EIVLTQSPGTLSLSPGERATLSCRASQSVSSSYLAWYQQKPGQAPRLLIYSASSRATGIPDRFSGSGSGTDFTLTISRLEPEDFAVYFCQQYGGLTGWTFGQGTKVEIKGGSSGDIQMTQSPSSVSASVGDRVIITCRASQGISSWLAWYQQKPGKAPKVLIYDASSLQSGVPSRFSGSGYGTDFTLTISSLQPEDSATYYCQQAKSFPITFGQGTRLEIKGGGGSGGSGSGGGGSASGSGQVQLVESGGGVVQPGRSLRLSCAASGFTFSSYAFHWVRQAPGKGLEWVAVISYDGSNQYYADSVKGRFTISRDNSKNTLYLQMNSLRADDTAVYYCARDLAIAVAGTWHYYNGMDVWGQGTTVTVSSGGSSGQMQLVQSGPEVKKPGTSVKVSCKASGFTFTSSAVQWVRQRQRLEWIGWIVVGSGNTNYAQKFQERVTITRDMSTSTAYMELSSLRSEDTAVYYCAAPNCSNVVCYDGFDIWGQGTMVTVSSASGGSGDKTHTCPPCPAPELLGGPSVFLFPPKPKDTLMISRTPEVTCVVVDVSHEDPEVKFNWYVDGVEVHNAKTKPREEQYNSYVVSVLTVLHQDWLNGKEYKCKVSNKALPAPIEKTISKAKGQPREPQVCTLPPSRDELTKNQVSLSCAVKGFYPSDIAVEWESNGQPENNYKTTPPVLDSDGSFFLVSKLTVDKSRWQQGNVFSCSVLHEALHSHYTQKSLSLSPG
B6: MX838 (other)
chain 1: B2 chain with V208G, S632C, T644W
chain 2: B4 chain 2 with V205G

Legend:
Assay in all cases: cell-based or functional assay
[1] = molecular target: SARS-CoV-2 spike (S) protein, Omicron sublineage BA.4.7 (R346S, F486V) (SARS-CoV-2, UniProt P0DTC2 14-1273)
[2] = molecular target: T1, SARS-CoV-2 spike (S) protein, Omicron sublineage BA.1.1 (R346K) (SARS-CoV-2, UniProt P0DTC2 14-1273)
[3] = molecular target: SARS-CoV-2 spike (S) protein, Omicron sublineage BA.4.6 (R346T, F486V) (SARS-CoV-2, UniProt P0DTC2 14-1273)
[4] = molecular target: SARS-CoV-2 spike (S) protein, Omicron sublineage BF.7 (R346T, F486V) (SARS-CoV-2, UniProt P0DTC2 14-1273)
[5] = molecular target: SARS-CoV-2 spike (S) protein, Omicron sublineage BQ 1.1 (R346T, K444T, F486V) (SARS-CoV-2, UniProt P0DTC2 14-1273)
[6] = molecular target: SARS-CoV-2 spike protein, Omicron sublineage BF.7 (R346T, F486V) (SARS-CoV-2, UniProt P0DTC2 14-1273)
[7] = molecular target: SARS-CoV-2 spike protein, Omicron sublineage BA.1.1 (R346K) (SARS-CoV-2, UniProt P0DTC2 14-1273)
[8] = molecular target: SARS-CoV-2 spike protein, Omicron sublineage BQ.1.1 (R346T, K444T, F486V) (SARS-CoV-2, UniProt P0DTC2 14-1273)
[9] = molecular target: SARS-CoV-2 spike protein, Omicron sublineage BA.4.6 (R346T, F486V) (SARS-CoV-2, UniProt P0DTC2 14-1273)
[10] = molecular target: SARS-CoV-2 spike (S) protein, Omicron variant B.1.1.529 (SARS-CoV-2, UniProt P0DTC2 14-1273)
[11] = molecular target: T1, SARS-CoV-2 spike (S) protein, Omicron …; remark: listed apart in the source

Row | Binder | IC50, pseudovirus neutralization [1] [µM] | IC80, pseudovirus neutralization [1] [µM] | IC50, pseudovirus neutralization [2] [µM] | IC80, pseudovirus neutralization [2] [µM] | IC50, pseudovirus neutralization [3] [µM] | IC80, pseudovirus neutralization [3] [µM] | IC50, pseudovirus neutralization [4] [µM] | IC80, pseudovirus neutralization [4] [µM] | IC50, pseudovirus neutralization [5] [µM] | IC80, pseudovirus neutralization [5] [µM] | IC50, pseudovirus neutralization [10] [µM] | IC80, pseudovirus neutralization [10] [µM] | IC50, pseudovirus neutralization [11] [µM] | IC80, pseudovirus neutralization [11] [µM] | other results
1 | B1 | 0.00237 | 0.013 | 0.00672 | 0.0354 | 0.0172 | 0.0427 | 0.00345 | 0.0222 | 1.92 | 8.87 | – | – | – | – | –
2 | B2 | 0.143 | 1.76 | – | 0.00623 | 0.124 | 1.64 | 0.356 | 1.42 | 0.375 | 1.13 | – | – | – | – | –
3 | B3 | 0.276 | > 10 | 0.0104 | 0.0115 | 0.207 | 4.65 | 0.86 | 4.38 | 0.629 | 2.71 | – | – | – | – | –
4 | B4 | – | – | – | – | – | – | – | – | – | – | – | – | – | – | IC50, pseudovirus neutralization [6]: 0.0405 µM; IC80, pseudovirus neutralization [6]: 0.125 µM; IC50, pseudovirus neutralization [7]: 0.00972 µM; IC80, pseudovirus neutralization [7]: 0.0114 µM; IC50, pseudovirus neutralization [8]: 4.11 µM; IC80, pseudovirus neutralization [8]: 4.63 µM; IC50, pseudovirus neutralization [9]: 0.0329 µM; IC80, pseudovirus neutralization [9]: 0.0955 µM
5 | B5 | – | – | – | – | – | – | – | – | – | – | 0.00143 | 0.00485 | 0.00652 | 0.0117 | –
6 | B6 | – | – | – | – | – | – | – | – | – | – | 0.0043 | 0.0091 | 0.00117 | 0.00323 | –
